# Results from the supplement of paper PMC9931576.
# Human monoclonal antibodies against the spike receptor-binding domain (heavy:light variable regions). IC50 against pseudoviruses bearing the spike of naturally observed variants; lower = stronger; >10 µg/ml means not reached at the top dose. No active / inactive call. The stated detection limit is 0.0005 µg/ml; values near or below 0.001 µg/ml lie at the floor of the assay.
# B1: BD55-5690 (protein)
# chain 1: QAQVVQSGAEVKKPGASVKVSCKASGYTFTSYSMHWVRQAPGQGLEWMGTFNPRGGPTNYAQKFHGRVTMTGDTSTGTVYMELSSLRSDDTAVYYCARDGSPYYDILMGQSYFGPWGQGTLVTVSS
# chain 2: QSVLTQPPSVSGAPGQRVTISCSGSSSNIGAGYDVHWYQQRPGTAPTLLIHGNNNRPSGVPDRFSGSTSDTSASLAITGLQAEDEAVYYCQSFDSSMSGPLWVFGGGTTLTVL
# B2: BD55-5694 (protein)
# chain 1: EVQLEQSGAEVKKPGESLRISCKGSGNDFIMYWIGWVRQMPGKGLEWMGIIYPGDSETKYSPSFQGQVTISADKSIRTAYLQWSSLKASDTAIYYCAGAGGWLGDSFDIWGRGTTVIVSS
# chain 2: EIVLTQSPGTLSLSPGGRATLSCRASQSVTRNYLAWYQQRPGQAPRVLIYGASTRATGVPDRFSGSGSGTDFTLTISRLERGDFAVYYCQQYGSAPLTFGGGTKVEIK
# B3: BD55-5697 (protein)
# chain 1: QLHLQESGPGLVKPSETLSLTCTVSGGSVTNSRNCWGWIRQPPGKGLEWIATIDYSGTTHYNPSLKSRVAISVDMSKSQFSLELSSVTAADTAVYYCARHVCQRSLYLLPLYFDYWGQGSVVTVSS
# chain 2: YELTQPPSVSLSPGQTARIACSGDALPSQYAYWYQQKPGQAPVLLIFKDTERPSGIPERFSGSISGTTATLTISGVQAEDEADYYCQSAAAGTTYMVFGGGTKLTVL
# B4: BD55-1091 (protein)
# chain 1: QVQLQESGPGLVKPSNTLSLTCSVSGYSISSGYYWAWIRQPPGKRLEWIGSVFESGATYYNPSLKSRVTISVDTSKNQFSLNLRSVTAADTAVYYCAREVAGSGNNELDYWGRGTLVTVSS
# chain 2: EIVMTQSPATLSVSPGERATLSCRASQSVGDNLAWYQHKPGQAPRLLIYGASTRATGVPARFSGSGSGTEFTLTISRLQSEDFAVYYCQQYNLWGTFGQGTKVEIK
# B5: BD55-5718 (protein)
# chain 1: QVQLVQSGSELKKPGTSVKVSCEASGYDFINFPIDWVRQAPGQGLEWMGWINTNTGHPTYAQGFTGRFVFSLDTSINTAYLHIGSLKAEDTAVYYCARDPNYGGEFDHWGQGTLVTVSS
# chain 2: DIVMTQSPATLSVSPGERATLSCRASYSFSSSLAWYQQKPGQAPRLLIFGVSTRATGIPARFSGSGSGTEFTLTISSLQSEDVAVYYCQQYYSWPLTFGGGTKVEIK
# B6: BD55-5728 (protein)
# chain 1: EVQLVQSGAEAKKPGESLKISCQGSGDNFNKYYIAWVRQMPGKGLEWMGFIYPGDSETRYSPSFEGQVTISADKSISTAFLQWRSLKASDTAMYYCARRFVGATVGDLFDYWGQGTLVTVSS
# chain 2: DIQMTQSPSSLSASMGDRVTITCRASESINRYLNWYQQRPGKAPKLLIFAASSLQSGVPSRFSGSGSGTDFTLTISSLQPEDFATYYCQQSYISFTFGGGTKVDMK
# B7: BD55-5737 (protein)
# chain 1: QVQLVQSGAEVKKPGASVKLSCKASGYTFTNYHIHWVRQAPGQGLEWMGIINPSGGSTGYGQKFQGRVTMTRDTSTGTVYMELSSLRSDDTAVYYCARDFAFSRAYSGYDILDTSWFDPWGQGTLVTVSS
# chain 2: DIVMTQSPDSLAVSLGERATITCKSSQSVLYGSKNQNYLAWYQHKPGQPPKVLIYWASTRQSGVPNRFSGSGSGTEFTLTISSLQAEDVAVYYCQQYYSSPLTFGGGTKVEIK
# B8: BD55-5741 (protein)
# chain 1: QVQLVQSGAEVKKPGSSVKVSCRASGDTFSTYAISWVRQAPGQGLEWMGGIIPMHGVAHYAQKFQGRVTITADESTSTAYMELSSLRSEDTAVYYCARVGRSYFHDSSGYWPYFDYWGQGTPVTVSP
# chain 2: DIQMTQSPSSLSASVGDRVTITCRASQTISTYLNWYQQKPGKAPKLLIYAASSLQSGVPSKFSGSGSGTDFTLTISSLQPEDFATYYCQQTYSSPYTFGQGTNLEIK
# B9: BD55-5748 (protein)
# chain 1: QVQLVQSGAEVKKPGSSVKVSCKASGGTFSSYSIIWVRQAPGQGLDWMGGIIPMFDTPTYAQKFQGRVTISADESTNTAYMELSSLRSEDTAVYYCATPHNFWTGYSSLLETHFDYWGQGTLVTVSS
# chain 2: QSALTQPPSASGSPGQSVTISCTGTNSDVGGYNYVSWYQQHPGKAPKLMIYEVTKRPSGVPDRFSGSKSANTASLTVSGLQAEDEADYYCSSYAGSNTLVFGGGTKLTVL
# B10: BD55-5765 (protein)
# chain 1: EVQLLESGGGLEQPGGSLRLSCAASGVTFGTNAMSWVRQAPGKGLEWVSTISYTGGSTYYADSVKGRVTISRDNSKKMLYLQMNSLRAEDTAVYYCACGSTWYGDWNFDLWGRGTLVTVSS
# chain 2: QSALTQPRSVSGSPGQSVTISCTGTSSDVGGYNYVSWYQQHPGKAPKLMIYDVSKRPSGVPDRFSGSKSGNTASLTISGLQAEDESNYYCCSYAGSYWVFGGGTKLTVL
# B11: BD-505 (protein)
# chain 1: EVQLVESGGGLIQPGGSLRLSCAASGFTVSSNYMNWVRQAPGKGLEWVSVIYSGGSTFYADSVKGRFTISRDNSKNTLYLQMNSLRAEDTAVYYCARDRVVYGMDVWGQGTTVTVSS
# chain 2: DIQMTQSPSSLSASVGDRVTITCQASQDIINYLNWYQQKPGKAPKLLIYGASNLETGVPSRFSGGGSGTDFTFTISSLQPEDIATYYCHQYDNLPPTFGQGTRLEIK
# B12: BD55-5844 (protein)
# chain 1: QLQLQESGPGLVKPSETLPLTCTVSGASISTGGGHWGWIRQPPGKGLEWIGSIYNSGTTYYNPSLKGRVTISVDTSKNQFSLKLSSVTAADTAVYFCARTAWFGELDDYWGQGTLVTVSS
# chain 2: QSVLTQPPSASGTPGQRVTISCSGSSSNIGTNYVYWYQQLPGTAPKLLIYGNNQRPSGVPDRFSGSKSGTSASLAISGLRSEDEADYYCAAWDDSLKVVFGGGTKLTVL
# Tests used:
# Experiment in all cases: pseudovirus neutralization IC50; higher = weaker neutralization
# [1] = molecular target: SARS-CoV-2 Omicron BA.1 spike pseudovirus
# Method: (§1)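 Single-round VSV luciferase pseudovirus mixed with antibody dilutions for 1 h and put on Huh-7 cells for about a day; IC50 from the dose curve.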
# [2] = molecular target: SARS-CoV-2 Omicron BA.2 spike pseudovirus
# Method: as §1
# [3] = molecular target: SARS-CoV-2 Omicron BA.2.75 spike pseudovirus
# Method: as §1
# [4] = molecular target: SARS-CoV-2 Omicron BA.5 spike pseudovirus
# Method: as §1
# [5] = molecular target: SARS-CoV-2 Omicron BQ.1.1 spike pseudovirus
# Method: as §1
# [6] = molecular target: SARS-CoV-2 Omicron XBB spike pseudovirus
# Method: as §1
# [7] = molecular target: SARS-CoV-2 early D614G spike pseudovirus
# Method: as §1
binder,measurement,setting,value
B1,pseudovirus neutralization IC50,[1],> 10 µg/mL
same,pseudovirus neutralization IC50,[2],> 10 µg/mL
same,pseudovirus neutralization IC50,[3],> 10 µg/mL
same,pseudovirus neutralization IC50,[4],> 10 µg/mL
same,pseudovirus neutralization IC50,[5],> 10 µg/mL
same,pseudovirus neutralization IC50,[6],> 10 µg/mL
same,pseudovirus neutralization IC50,[7],0.0506 µg/mL
B2,pseudovirus neutralization IC50,[1],> 10 µg/mL
same,pseudovirus neutralization IC50,[2],> 10 µg/mL
same,pseudovirus neutralization IC50,[3],> 10 µg/mL
same,pseudovirus neutralization IC50,[4],> 10 µg/mL
same,pseudovirus neutralization IC50,[5],> 10 µg/mL
same,pseudovirus neutralization IC50,[6],> 10 µg/mL
same,pseudovirus neutralization IC50,[7],> 10 µg/mL
B3,pseudovirus neutralization IC50,[1],0.0134 µg/mL
same,pseudovirus neutralization IC50,[2],0.168 µg/mL
same,pseudovirus neutralization IC50,[3],0.238 µg/mL
same,pseudovirus neutralization IC50,[4],0.47 µg/mL
same,pseudovirus neutralization IC50,[5],> 10 µg/mL
same,pseudovirus neutralization IC50,[6],> 10 µg/mL
same,pseudovirus neutralization IC50,[7],0.00313 µg/mL
B4,pseudovirus neutralization IC50,[1],4.21 µg/mL
same,pseudovirus neutralization IC50,[2],> 10 µg/mL
same,pseudovirus neutralization IC50,[3],> 10 µg/mL
same,pseudovirus neutralization IC50,[4],> 10 µg/mL
same,pseudovirus neutralization IC50,[5],> 10 µg/mL
same,pseudovirus neutralization IC50,[6],> 10 µg/mL
same,pseudovirus neutralization IC50,[7],0.514 µg/mL
B5,pseudovirus neutralization IC50,[1],> 10 µg/mL
same,pseudovirus neutralization IC50,[2],> 10 µg/mL
same,pseudovirus neutralization IC50,[3],> 10 µg/mL
same,pseudovirus neutralization IC50,[4],> 10 µg/mL
same,pseudovirus neutralization IC50,[5],> 10 µg/mL
same,pseudovirus neutralization IC50,[6],> 10 µg/mL
same,pseudovirus neutralization IC50,[7],0.00497 µg/mL
B6,pseudovirus neutralization IC50,[1],> 10 µg/mL
same,pseudovirus neutralization IC50,[2],> 10 µg/mL
same,pseudovirus neutralization IC50,[3],> 10 µg/mL
same,pseudovirus neutralization IC50,[4],> 10 µg/mL
same,pseudovirus neutralization IC50,[5],> 10 µg/mL
same,pseudovirus neutralization IC50,[6],> 10 µg/mL
same,pseudovirus neutralization IC50,[7],0.0783 µg/mL
B7,pseudovirus neutralization IC50,[1],> 10 µg/mL
same,pseudovirus neutralization IC50,[2],> 10 µg/mL
same,pseudovirus neutralization IC50,[3],> 10 µg/mL
same,pseudovirus neutralization IC50,[4],> 10 µg/mL
same,pseudovirus neutralization IC50,[5],> 10 µg/mL
same,pseudovirus neutralization IC50,[6],> 10 µg/mL
same,pseudovirus neutralization IC50,[7],0.0669 µg/mL
B8,pseudovirus neutralization IC50,[1],0.274 µg/mL
same,pseudovirus neutralization IC50,[2],0.103 µg/mL
same,pseudovirus neutralization IC50,[3],0.148 µg/mL
same,pseudovirus neutralization IC50,[4],> 10 µg/mL
same,pseudovirus neutralization IC50,[5],> 10 µg/mL
same,pseudovirus neutralization IC50,[6],> 10 µg/mL
same,pseudovirus neutralization IC50,[7],0.00245 µg/mL
B9,pseudovirus neutralization IC50,[1],> 10 µg/mL
same,pseudovirus neutralization IC50,[2],> 10 µg/mL
same,pseudovirus neutralization IC50,[3],> 10 µg/mL
same,pseudovirus neutralization IC50,[4],> 10 µg/mL
same,pseudovirus neutralization IC50,[5],> 10 µg/mL
same,pseudovirus neutralization IC50,[6],> 10 µg/mL
same,pseudovirus neutralization IC50,[7],0.0994 µg/mL
B10,pseudovirus neutralization IC50,[1],0.00253 µg/mL
same,pseudovirus neutralization IC50,[2],0.00589 µg/mL
same,pseudovirus neutralization IC50,[3],0.258 µg/mL
same,pseudovirus neutralization IC50,[4],0.0056 µg/mL
same,pseudovirus neutralization IC50,[5],1.21 µg/mL
same,pseudovirus neutralization IC50,[6],1.34 µg/mL
same,pseudovirus neutralization IC50,[7],0.00157 µg/mL
B11,pseudovirus neutralization IC50,[1],0.0159 µg/mL
same,pseudovirus neutralization IC50,[2],0.0209 µg/mL
same,pseudovirus neutralization IC50,[3],0.585 µg/mL
same,pseudovirus neutralization IC50,[4],0.0156 µg/mL
same,pseudovirus neutralization IC50,[5],0.441 µg/mL
same,pseudovirus neutralization IC50,[6],0.0292 µg/mL
same,pseudovirus neutralization IC50,[7],0.0147 µg/mL
B12,pseudovirus neutralization IC50,[1],> 10 µg/mL
same,pseudovirus neutralization IC50,[2],> 10 µg/mL
same,pseudovirus neutralization IC50,[3],> 10 µg/mL
same,pseudovirus neutralization IC50,[4],> 10 µg/mL
same,pseudovirus neutralization IC50,[5],> 10 µg/mL
same,pseudovirus neutralization IC50,[6],> 10 µg/mL
same,pseudovirus neutralization IC50,[7],> 10 µg/mL
